Tested on: HA of H3N2
Format: binding, Influenza A virus H3N2 (Aic68, Fuk85)

B1: F005-126: human IgG antibody broadly neutralizing H3N2 viruses; heavy chain SEQ ID NO: 2, light chain SEQ ID NO: 13 (antibody)
heavy: QVQLVQSGAEVKKPGASVTVSCQVSGYTLTSYGLSWVRQAPGQGLEWVGWINTYDGQTKYVKKFQGRVTMTTHTGTNTAYMEMKSLRSDDTAVYYCARVEGVRGVMGFHYYPMDVWGQGTMVTVSSASTKGPSVFPLAPSSKSTSGGTAALGCLVKDYFPEPVTVSWNSGALTSGVHTFPAVLQSSGLYSLSSVVTVPSSSLGTQTYICNVNHKPSNTKVDKKV[not shown - human IgG1 Fc with changes]
light: QSVLTQPPSVSGAPGQRVTISCTGSSSNIGAGYAVHWYQQLPGTAPKLLISGNSNRPSGVPDRFSGSKSGTSASLAITGLQAEDEADYYCQSYDSSLSGSVFGGGTKLTVLGQPKAAPSVTLFPPSSEELQANKATLVCLISDFYPGAVTVAWKADSSPVKAGVETTTPSKQSNNKYAASSYLSLTPEQWKSHRSYSCQVHEGSTVEKTVAPTECSARQ
**Q.** For B1, which “binding to truncated HA Fuk85HA39-319 expressed on cells” value is on record?
**A.** The value was “bound to Fuk85HA39-319 although weakly”.

**Q.** And the “binding to truncated HA Fuk85HA44-309 expressed on cells” value?
**A.** The value was “not to Fuk85HA44-309”.
